A mixed list of measured activities; the numbers were collected in NIAID ChemDB.

Common to all: tests in culture; organism: Candida albicans; endpoint: MIC

Conditions beyond the fields shown may differ between rows. Blank or dashed fields: not listed here.

Cc1ccc(-c2nnc(SCC(O)(Cn3cncn3)c3ccc(Cl)cc3Cl)n2N)cc1 ; read by: broth dilution ; strain or isolate: ATCC 18804 ; value: >64 µg/mL
Nc1[nH]c(=O)ncc1F ; conditions: pH 5 ; read by: broth dilution ; strain or isolate: 15 isolates ; value: 0.125 µg/mL
CCN1CCN(C(=S)Nc2nc(N3CCN(CC)CC3)c3ccccc3n2)CC1 ; read by: agar / visual reading ; strain or isolate: MTCC 183 ; value: 6.25 µg/mL
Cc1ccc(-c2nnc(SCC(O)(Cn3cncn3)c3ccc(F)cc3F)n2N)cc1 ; read by: broth dilution ; strain or isolate: PTCC 6027 ; value: >64 µg/mL
Cc1cc2c(O[C@H]3O[C@H](CO)[C@@H](O)[C@H]3O)ccc(O)c2c(=O)o1 ; read by: turbidity ; strain or isolate: ATCC 32354 ; value: >128 µg/mL
CC[C@@H]([C@H](C)O)n1ncn(-c2ccc(N3CCN(c4ccc(OC[C@@H]5CO[C@@](Cn6cncn6)(c6ccc(F)cc6F)C5)cc4)CC3)cc2)c1=O ; conditions: pH 7 ; read by: broth dilution ; strain or isolate: 15 isolates ; value: 0.03 µg/mL
Nn1c(SCC(O)(Cn2cncn2)c2ccc(Cl)cc2Cl)nnc1-c1ccccc1 ; read by: broth dilution ; strain or isolate: IRFC 37 ; value: 8 µg/mL
CCN1CCN(c2nc(NC(=S)N3CCN(C)CC3)nc3ccccc23)CC1 ; read by: agar / visual reading ; strain or isolate: MTCC 183 ; value: 25 µg/mL
O=C(c1c[nH]c2ccccc12)[C@H](O)CO ; read by: turbidity ; strain or isolate: ATCC 32354 ; value: >128 µg/mL
Cc1ccc(/C=C2/SC(=O)N(CC(=O)Nc3nc4ccc(SC#N)cc4s3)C2=O)cc1 ; read by: broth dilution / visual reading ; strain or isolate: MTCC 227 ; value: 250 µg/mL
Nn1c(SCC(O)(Cn2cncn2)c2ccc(F)cc2F)nnc1-c1ccc(O)cc1 ; read by: broth dilution ; strain or isolate: IRFC 36 ; value: >64 µg/mL
Cc1ccc(N2C(=O)C[C@@H](C)C2=O)cc1 ; read by: broth dilution / turbidity ; strain or isolate: ATCC 10231 ; value: 62.5 µg/mL
N#CSc1ccc2nc(NC(=O)CN3C(=O)S/C(=C/c4cccc(Br)c4)C3=O)sc2c1 ; read by: broth dilution / visual reading ; strain or isolate: MTCC 227 ; value: 500 µg/mL
Nn1c(SCC(O)(Cn2cncn2)c2ccc(Cl)cc2Cl)nnc1-c1ccc(F)cc1 ; read by: broth dilution ; strain or isolate: IRFC 36 ; value: >64 µg/mL
N#CSc1ccc2nc(NC(=O)CCl)sc2c1 ; read by: broth dilution / visual reading ; strain or isolate: MTCC 227 ; value: 500 µg/mL
C[C@@H](c1ncncc1F)[C@](O)(Cn1cncn1)c1ccc(F)cc1F ; conditions: pH 6 ; read by: broth dilution ; strain or isolate: 15 isolates ; value: 0.03 µg/mL
COc1ccc(N2C(=O)CC(C)C2=O)cc1 ; read by: broth dilution / turbidity ; strain or isolate: ATCC 10231 ; value: 250 µg/mL
Cc1ccc(NC(=S)Nc2nc(N3CCN(c4ccccc4)CC3)c3ccccc3n2)cc1 ; read by: agar / visual reading ; strain or isolate: MTCC 183 ; value: 12.5 µg/mL
N#CSc1ccc2nc(NC(=O)CN3C(=O)S/C(=C/c4ccccc4)C3=O)sc2c1 ; read by: broth dilution / visual reading ; strain or isolate: MTCC 227 ; value: 1000 µg/mL
COC(=O)[C@H]1[C@@H]2C[C@@H](O[C@@H]3O[C@H](C)[C@@H](O)[C@H](N)[C@@H]3O)/C=C/C=C/C=C/C=C/C=C/C=C/C=C/[C@H](C)[C@@H](O)[C@H](C)[C@H](C)OC(=O)C[C@H](O)C[C@H](O)[C@@H](O)CC[C@H](O)C[C@H](O)C[C@](O)(C[C@@H]1O)O2 ; conditions: pH 6 ; read by: broth dilution ; strain or isolate: 15 isolates ; value: 1 µg/mL
CCN1CCN(c2nc(Nc3ccc(C(=O)/C=C/c4ccccc4)cc3)nc3ccccc23)CC1 ; read by: agar / visual reading ; strain or isolate: MTCC 183 ; value: 100 µg/mL
COc1ccc(/C=C2/SC(=O)NC2=O)cc1 ; read by: broth dilution / visual reading ; strain or isolate: MTCC 227 ; value: 500 µg/mL
COC(=O)/C=C/c1ccccc1 ; read by: broth dilution / resazurin ; value: 1000 µg/mL
O=C1NC(=O)/C(=C\c2ccccc2-c2ccco2)S1 ; read by: broth dilution / visual reading ; strain or isolate: MTCC 227 ; value: 500 µg/mL
CCN1CCN(c2nc(Nc3ccc(C(=O)/C=C/c4cc(C)c(O)c(C)c4)cc3)nc3ccccc23)CC1 ; read by: agar / visual reading ; strain or isolate: MTCC 183 ; value: 12.5 µg/mL
N#CSc1ccc2nc(NC(=O)CN3C(=O)S/C(=C/c4ccccc4Cl)C3=O)sc2c1 ; read by: broth dilution / visual reading ; strain or isolate: MTCC 227 ; value: 250 µg/mL
COc1ccc(-c2nnc(SCC(O)(Cn3cncn3)c3ccc(F)cc3F)n2N)cc1 ; read by: broth dilution ; strain or isolate: IRFC 37 ; value: >64 µg/mL
COc1ccc(N2C(=O)C[C@@H](C)C2=O)cc1 ; read by: broth dilution / turbidity ; strain or isolate: ATCC 10231 ; value: 125 µg/mL
Nn1c(SCC(O)(Cn2cncn2)c2ccc(Cl)cc2Cl)nnc1-c1cccc(Br)c1 ; read by: broth dilution ; strain or isolate: ATCC 18804 ; value: >64 µg/mL
CC1CC(=O)N(Cc2ccccc2)C1=O ; read by: broth dilution / turbidity ; strain or isolate: ATCC 10231 ; value: 62.5 µg/mL
CCCCCCN(CCCCCC)c1ccc(/C=C2/SC(=O)NC2=O)cc1 ; read by: broth dilution / visual reading ; strain or isolate: MTCC 227 ; value: 1000 µg/mL
C[C@@H]1C(=O)N(CCCc2ccccc2)C(=O)[C@@H]1C ; read by: broth dilution / turbidity ; strain or isolate: ATCC 10231 ; value: 31.3 µg/mL
CC(C)(O)c1cn(-c2ccc(Cl)cc2)nn1 ; read by: broth dilution ; strain or isolate: URM 4384 ; value: 128 µg/mL

The first 3 rows once more:

smiles	conditions	read by	strain or isolate	value
Cc1ccc(-c2nnc(SCC(O)(Cn3cncn3)c3ccc(Cl)cc3Cl)n2N)cc1	-	broth dilution	ATCC 18804	>64 µg/mL
Nc1[nH]c(=O)ncc1F	pH 5	broth dilution	15 isolates	0.125 µg/mL
CCN1CCN(C(=S)Nc2nc(N3CCN(CC)CC3)c3ccccc3n2)CC1	-	agar / visual reading	MTCC 183	6.25 µg/mL